PubChem BioAssay AID1259414, Drosophila RNAi Screening Center | 2018
The deposit covers about 24,000 reagents; this is an unselected part of those that have a named target and a result. Of all reagents, about 1,210 (5%) were called active. 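Inactive calls also include excluded dsRNAs with several or no targets, genes unexpressed in JW18, and well A1, regardless of score.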 Names joined by + are all predicted targets of the reagent.

Purpose: 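Host factors increasing or decreasing Wolbachia levels in cultured fly cells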 (primary screen)
Cell system: Drosophila JW18 cells infected with Wolbachia
Knock-down reagent: long dsRNA against Drosophila genes, 0.25 µg dsRNA per well of a 384-well plate
Timing: 5 days
Challenge: cells persistently infected with Wolbachia before knock-down; no added drug
Read-out: 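Automated imaging of bacterial rRNA staining divided by host cell count, reported as plate-normalised robust z-score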
Scale: Wolbachia per cell robust z: higher = more Wolbachia per host cell than the plate typical
Active means: 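Active if absolute robust z reaches 1.5 in two or more of three replicates, leaving out multi- or no-target dsRNAs, genes unexpressed in JW18 and A1 wells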

target	DRSC id	Wolbachia per cell robust z, rep 1	Wolbachia per cell robust z, rep 2	Wolbachia per cell robust z, rep 3	Outcome
SPE	DRSC15135	-1.28	-1.18	-0.0874	inactive
SPE	DRSC25455	-1.29	-0.567	-1.04	inactive
CG6052	DRSC10574	0.517	-0.167	-0.252	inactive
CG44014 + CG44013	DRSC14995	-0.431	-0.337	-0.443	inactive
CG15547	DRSC15085	0.403	-3.98	0.423	inactive
CG15547	DRSC29577	1.13	0.403	1.18	inactive
CG15547	DRSC41625	-0.182	-1.11	0.0724	inactive
CG14397	DRSC02381	0.416	0.216	1.24	inactive
CG33099	DRSC15774	0.729	2.96	0.615	inactive
CG33099	DRSC29273	-0.488	-0.349	0.698	inactive
CG31867	DRSC03338	-1.54	-1.02	1.62	inactive
rdgBbeta	DRSC07672	-4.05	-0.307	0.266	inactive
CG31076	DRSC16017	0.0286	1.07	-4.25	inactive
SF1	DRSC16844	0.46	0.938	-5.63	inactive
mtrm	DRSC23076	-2.39	0.47	0.163	inactive
CG17005	DRSC02556	-0.61	-0.298	0.77	inactive
mEFTu2	DRSC06163	-0.421	-4.22	0.145	inactive
meigo	DRSC15877	-1.5	-1.51	0.226	active
meigo	DRSC25836	1.07	0.731	2.37	inactive
CG31988	DRSC22491	1.31	0.711	0.56	inactive
CG42671	DRSC09093	-0.0738	-1.65	-1.1	inactive
CG42671	DRSC10321	-1.13	-0.286	0.378	inactive
CG42671	DRSC29747	-1.17	-1.23	-0.121	inactive
CG42671	DRSC38615	2.11	0.436	2.46	inactive
Gip	DRSC18667	-1.94	0.235	-0.865	inactive
Obp56e	DRSC07188	-4.24	-0.676	-0.0235	inactive
bt	DRSC17129	-2.33	-0.692	-2.64	inactive
bt	DRSC17171	0.465	-1.57	-0.443	inactive
bt	DRSC36656	0.135	-1.06	1.44	inactive
Dab	DRSC11140	-0.319	0.858	1.23	inactive
CG9294	DRSC04537	-1.6	-0.663	-0.978	inactive
Cpsf160	DRSC05968	0.0534	0.0465	1.2	inactive
Jon99Fi	DRSC26496	0.883	0.707	0.828	inactive
CG9747	DRSC16554	0.549	0.7	-0.531	inactive
CG9747	DRSC23910	-0.269	3.13	-0.663	inactive
pit	DRSC17025	0.0325	0.272	0.212	inactive
pit	DRSC22798	-0.0344	0.0659	0.614	inactive
pit	DRSC28254	0.851	0.731	1.11	inactive
CG5510	DRSC15823	0.977	0.572	0.437	inactive
p115	DRSC18813	-0.489	-1.31	-0.185	inactive
CG16781	DRSC18117	0.485	-0.955	-1.36	inactive
CG16781	DRSC28112	0.893	0.301	0.669	inactive
Pk34A	DRSC03398	-0.253	-1.46	-0.458	inactive
Pk34A	DRSC28021	0.354	-0.342	-1.09	inactive
Idgf6	DRSC07360	-5.95	-0.322	-0.128	inactive
Idgf6	DRSC24904	-0.373	0.285	-0.37	inactive
CG4404	DRSC19897	0.765	0.704	0.65	inactive
CG4404	DRSC23956	-0.782	0.567	-0.114	inactive
Cpr92A	DRSC16000	-0.756	-0.497	0.338	inactive
Cpr92A	DRSC25340	-3.18	-1.51	-1.42	inactive
CG8490	DRSC07194	0.0985	1.03	0.312	inactive
CG8490	DRSC27075	-5.73	-0.266	0.327	inactive
GstE1	DRSC07437	-0.865	-0.462	0.00238	inactive
GstE1	DRSC24708	1.1	0.0323	0.242	inactive
Pura	DRSC08891	0.474	3.05	-1.2	inactive
Pura	DRSC10862	0.763	-0.299	-5.47	inactive
Pura	DRSC10864	-0.162	-0.62	-0.0831	inactive
Pura	DRSC10865	-0.236	-0.0951	0.105	inactive
Pura	DRSC10866	-0.397	-0.161	0.215	inactive
Pura	DRSC26606	-1.11	-0.154	0.465	inactive
wake	DRSC15248	-1.22	-0.385	1.07	inactive
wake	DRSC16148	-2.05	0.673	-5.98	inactive
wake	DRSC16149	-0.105	0.209	-0.351	inactive
wake	DRSC22995	-0.726	0.475	0.334	inactive
wake	DRSC25798	0.739	-0.577	-1.01	inactive
wake	DRSC29345	-0.307	-0.411	0.0823	inactive
CG43307	DRSC00893	1.17	0.682	-0.055	inactive
Naglu	DRSC02267	0.0148	-0.157	-1.02	inactive
CG32102	DRSC22015	0.496	0.395	-0.186	inactive
fw	DRSC20334	-2.99	-0.423	0.608	inactive
fw	DRSC27087	0.258	0.0213	-0.171	inactive
CG31050	DRSC13883	-1.46	-2.81	1.59	inactive
twy	DRSC10562	0.394	0.481	-0.483	inactive
shg	DRSC04714	0.418	-2.51	1.01	inactive
shg	DRSC27751	-1.82	0.603	0.16	inactive
shg	DRSC38948	-2.5	0.0821	0.493	inactive
fd19B	DRSC20688	-0.269	-1.82	-0.789	inactive
fd19B	DRSC26447	0.194	-1.12	0.000801	inactive
Mis12	DRSC10299	0.763	1.32	-1.3	inactive
Alms1b + Alms1a	DRSC18559	-2.39	0.0462	-3.93	inactive
CG18605	DRSC06772	-1.07	0.23	1.31	inactive
CG18605	DRSC26583	-0.133	-0.0951	-0.335	inactive
mbt	DRSC23020	-0.186	-0.0237	-0.588	inactive
mbt	DRSC25818	-2.26	-0.991	-1.15	inactive
CG13392	DRSC02262	-2.05	-0.666	-0.56	inactive
Orc2	DRSC16776	-0.676	1.28	0.556	inactive
Cpr47Eg	DRSC07330	-0.138	0.281	-0.409	inactive
